The chains behind the UniProt entries cited, without tags or fusion partners.
UniProt O77389, whole entry V196L: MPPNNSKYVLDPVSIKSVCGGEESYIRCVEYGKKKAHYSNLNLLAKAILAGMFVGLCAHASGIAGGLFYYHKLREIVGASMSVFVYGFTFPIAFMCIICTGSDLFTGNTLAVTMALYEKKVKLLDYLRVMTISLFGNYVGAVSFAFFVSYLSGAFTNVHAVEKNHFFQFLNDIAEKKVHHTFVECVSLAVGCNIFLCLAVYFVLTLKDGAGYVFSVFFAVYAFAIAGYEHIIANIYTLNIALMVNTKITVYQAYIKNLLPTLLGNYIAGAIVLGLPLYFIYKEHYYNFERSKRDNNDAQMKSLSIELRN

In publication PMC10433847, “The Plasmodium Lactate/H^+ Transporter PfFNT Is Essential and Druggable In Vivo” (Antimicrobial Agents and Chemotherapy, 2023):

Target: PfFNT V196L (Plasmodium falciparum, UniProt O77389, V196L)
Test: 14C-lactate transport inhibition, PfFNT V196L expressed in yeast
Details: read-out: IC50, inhibition of 14C-lactate transport, pH 6.8, 1-mM inward lactate gradient
Text: The generation of codon-optimized wild-type PfFNT and the G107S mutant in the yeast expression vector pDR196 have been described previously ([3], [12]). Point mutations encoding G21E or V196L were introduced using the QuikChange protocol (Stratagene), and sequenced for verification (for primers, see Table S2). For phenotypic growth assays, the PfFNT mutants were expressed in Saccharomyces cerevisiae strain W303-1A Δ jen1Δady2 cells (MATa, can1–100, ade2-loc, his3–11,15, leu2–3,–112, trp1–1–1, ura3–1, jen1::kanMX4, ady2::hphMX4) kindly provided by M. Casal ([33]). Yeast cultures were grown at 29°C to an optical density at 600 nm (OD600) of 1 ± 0.1 in selective SD medium with adenine, histidine, leucine, tryptophan, and 2% (wt/vol) glucose and lacking uracil. The cells were collected by centrifugation, washed with water, and diluted to an OD600 of 0.05 in 0.17% (wt/vol) Difco yeast nitrogen base without amino acids, 0.5% (wt/vol) ammonium sulfate, 50 mM morpholineethanesulfonic acid, and 1% (wt/vol) sodium L-lactate supplemented with adenine, histidine, leucine, and tryptophan. Growth at 29°C was monitored by measuring the OD600 at regular intervals. […] IC50 values were calculated from sigmoidal fits to a Hill equation (GraphPad Prism) from technical triplicates each for three biological repetitions.

SMILES: COc1ccc(C(=O)C=C(O)C(F)(F)C(F)(F)F)cn1
- IC50: 0.0102 mM
